In patent publication US6861448B2, “NAD synthetase inhibitors and uses thereof” (priority 1998, dated 2005):

Tests used:
[1] = tested on: A. niger; test: MIC test, fungal growth inhibition; settings: in vitro; tested form: iodide
[2] = tested on: C. albicans; test: MIC test, fungal growth inhibition; settings: in vitro; tested form: iodide
[3] = tested on: P aeruginosa; test: MIC test (NCCLS broth dilution), growth inhibition; format: cell-based; settings: in vitro; tested form: iodide
[4] = tested on: E. coli; test: MIC test (NCCLS broth dilution), growth inhibition; format: cell-based; settings: in vitro; tested form: iodide
[5] = tested on: S. aureus (MCR); test: MIC test (NCCLS broth dilution), growth inhibition; format: cell-based; settings: multiple values = two or more tests; tested form: iodide
[6] = tested on: S. aureus; test: MIC test (NCCLS broth dilution), growth inhibition; format: cell-based; settings: multiple values = two or more tests; tested form: iodide

## C[N+](C)(C)[C@@H](Cc1ccccc1)C(=O)NCCCCCCCCOc1ccc(OCc2cccc(Cl)c2)cc1
[1]
  Potency to inhibit growth, A. niger (MIC): >50 mg/L
[2]
  Potency to inhibit growth, C. albicans (MIC): <3.13 mg/L
[3]
  Potency to inhibit growth, P aeruginosa (MIC): >50 mg/L
[4]
  Potency to inhibit growth, E. coli (MIC): >50 mg/L
[5]
  Minimal Inhibitory Concentration (MIC), S. aureus (MCR): <0.78 mg/L
[6]
  Minimal Inhibitory Concentration (MIC), S. aureus: <1.56 mg/L
